Results of unrelated studies side by side (data: NIAID ChemDB).

Shared fields: whole-cell or culture tests; agent: Hepatitis C virus; read-out: EC50

ECn is the concentration giving n% inhibition of infection, replication or growth. Lines come from different laboratories, so protocols vary. Blank or dashed fields: not listed here.

CNC(=O)c1c(-c2ccc(F)cc2)oc2cc(N(CCO)S(C)(=O)=O)c(C3CC3)cc12 ; read by: luciferase / replicon ; cell line: Huh7 ; strain: GT2a ; value: 0.0433 µM
NC(=O)c1nn(Cc2cccc(NC(=O)Cc3ccccc3)c2)c2ccccc12 ; read by: fluorescence ; cell line: Huh7.5.1 ; strain: J399EM ; value: 0.539 µM
COc1cc(C)cc2c(-c3c(O)cc(O)c4c3CC(C)NC4C)cc(-c3cc(-c4c(O)cc(O)c5c4CC(C)NC5C)c4cc(C)cc(OC)c4c3O)c(O)c12 ; read by: PCR ; cell line: Huh7-1 ; strain: JFH-1 ; value: 8 µM
COc1ccc2c(O[C@@H]3C[C@H]4C(=O)N[C@]5(C(=O)NS(=O)(=O)C6CC6)C[C@H]5/C=C\CCCCN(C)C(=O)[C@@H]4C3)cc(-c3nc(C(C)C)cs3)nc2c1C ; read by: antigen ; cell line: Huh7.5 ; strain: K3a/650 ; value: 2.553 µM
O=C(O)c1c(-c2ccccc2)nc(SCc2nc3ccccc3[nH]2)[nH]c1=O ; read by: replicon / PCR ; cell line: Huh7 ; value: 0.465 µM
C=C[C@@H]1C[C@]1(NC(=O)[C@@H]1C[C@@H](Oc2nccc3ccc(Br)cc23)CN1C(C)=O)C(=O)NS(=O)(=O)C1CC1 ; read by: luciferase ; strain: 1b R155K ; value: >3 µM
N#Cc1c(-c2ccccc2)nc(NCc2nc3ccccc3[nH]2)[nH]c1=O ; read by: replicon / PCR ; cell line: Huh7 ; value: 0.263 µM
CCC[C@H](NC(=O)[C@@H]1[C@H]2CCC[C@H]2CN1C(=O)[C@@H](NC(=O)[C@@H](NC(=O)c1cnccn1)C1CCCCC1)C(C)(C)C)C(=O)C(=O)NC1CC1 ; read by: antigen ; cell line: Huh7.5 ; strain: HK6a ; value: 0.454 µM
CO[C@H]1[C@@H](O)[C@@H](C)O[C@H](O[C@H]2[C@H](Oc3cccc4c(O)c5c(=O)oc6ccc(C)c7c(=O)oc(c34)c5c67)O[C@H](C)[C@H](O)[C@@H]2O)[C@@H]1O ; read by: PCR ; cell line: Huh7-1 ; strain: JFH-1 ; value: 1.4 µM
CC(=O)Nc1ccc(-c2ccc(Cl)cc2)c(COc2ccc(-c3nc4cc(C(=O)O)ccc4n3C3CCCCC3)cc2)c1 ; read by: luciferase ; cell line: Huh7 ; strain: 2b ; value: 15.7 µM
COc1ccccc1C(=O)Nc1cccc(Cn2nc(C(N)=O)c3ccccc32)c1 ; read by: fluorescence ; cell line: Huh7.5.1 ; strain: J399EM ; value: 0.603 µM
CC1CCC(C(=O)N(c2cc(C#CC(C)(C)C)sc2C(=O)O)C2CCC(O)CC2)CC1 ; read by: luciferase / replicon ; cell line: Huh7.5 ; strain: GT3a ; value: 12.03 µM
C[C@@]1(O)[C@H](O)[C@@H](CO)O[C@H]1n1cnc2c(N)ncnc21 ; read by: luciferase ; cell line: Huh7 ; strain: 1b ; value: 0.3717 µM
O=C(O)c1c(-c2ccccc2Cl)nc(NCc2nc3ccccc3[nH]2)[nH]c1=O ; read by: replicon / PCR ; cell line: Huh7 ; value: 0.546 µM
CC1=CC[C@H](C(=O)N(c2cc(C#CC(C)(C)C)sc2C(=O)O)C2CCC(O)(CO[C@H]3CCOC3)CC2)CC1 ; read by: luciferase ; cell line: Huh7-Lunet ; strain: GT1b ; value: 0.011 µM
O=C(O)c1c(-c2ccco2)nc(NCc2nc3ccccc3[nH]2)[nH]c1=O ; read by: replicon / PCR ; cell line: Huh7 ; value: 0.87 µM
CCC[C@H](NC(=O)[C@@H]1[C@H]2CCC[C@H]2CN1C(=O)[C@@H](NC(=O)[C@@H](NC(=O)c1cnccn1)C1CCCCC1)C(C)(C)C)C(=O)C(=O)NC1CC1 ; read by: luciferase / reporter gene ; cell line: Huh7.5 ; changes: P58L ; strain: genotype 1b ; value: 0.2565 µM
Cc1ccc(C(=O)Nc2cccc(Cn3nc(C(N)=O)c4ccccc43)c2)cc1 ; read by: fluorescence ; cell line: Huh7.5.1 ; strain: J399EM ; value: 0.115 µM
C[C@@]1(O)[C@H](O)[C@@H](CO)O[C@H]1c1ccc2c(N)ncnn12 ; read by: PCR ; cell line: Huh7.5 ; strain: GT1a ; value: 0.76 µM
C[C@@]1(O)[C@H](O)[C@@H](CO)O[C@H]1n1cnc2c(N)ncnc21 ; read by: luciferase ; cell line: Huh7-Lunet ; strain: GT-1b Con1 ; value: 0.561 µM
O=C(O)c1ccc2c(c1)nc(-c1ccc(OCc3cc(N4CCCC4=O)ccc3-c3ccc(Cl)cc3)cc1F)n2C1CCCCC1 ; read by: luciferase / replicon ; cell line: Huh7 ; strain: GT2a ; value: 10.62 µM
CCCCn1cnc2c(c(CC#N)nn2-c2ccccc2)c1=N ; read by: PCR ; cell line: Huh7-1 ; strain: sg2a (JFH) ; value: 7.3 µM
CC[C@H](C)C(=O)O[C@H]1CC=CC2C=C[C@H](C)[C@H](CC[C@@H]3C[C@@H](O)CC(=O)O3)[C@H]21 ; read by: luciferase / replicon ; cell line: Huh 5-2 ; value: 1.3 µM
Cc1cc(N2CCOCC2)nc2ccc(Cc3ccc4nc(N5CCOCC5)cc(C)c4c3)cc12 ; read by: PCR ; cell line: Huh7-1 ; strain: sg2a (JFH) ; value: 5.5 µM
Fc1ccccc1-c1nc2ccn(Cc3ccc(-c4ccc(C(F)(F)F)cc4C(F)(F)F)nn3)cc-2n1 ; read by: luciferase ; cell line: Huh7 ; strain: 2b ; value: 6.71 µM
O=C1OC2(c3ccc(O)cc3Oc3cc(O)ccc32)c2c1c(-c1ccccc1)c(-c1ccccc1)c(-c1ccccc1)c2-c1ccccc1 ; read by: PCR ; cell line: Huh7-1 ; strain: sg1b ; value: 4.7 µM
CC(=O)c1ccc(C(=O)Nc2cccc(Cn3nc(C(N)=O)c4ccccc43)c2)cc1 ; read by: fluorescence ; cell line: Huh7.5.1 ; strain: J399EM ; value: 0.11 µM

For reference, 3 entries again:

SMILES,read by,cell line,changes,strain,value
O=C(O)c1c(-c2ccco2)nc(NCc2nc3ccccc3[nH]2)[nH]c1=O,replicon / PCR,Huh7,,,0.87 µM
CC(=O)Nc1ccc(-c2ccc(Cl)cc2)c(COc2ccc(-c3nc4cc(C(=O)O)ccc4n3C3CCCCC3)cc2)c1,luciferase,Huh7,,2b,15.7 µM
CC1CCC(C(=O)N(c2cc(C#CC(C)(C)C)sc2C(=O)O)C2CCC(O)CC2)CC1,luciferase / replicon,Huh7.5,,GT3a,12.03 µM